Values quoted from earlier work as cited in patent US20220249978A1, “NOVEL SOLVENT FOR EXTRACTING, SOLUBILISING AND/OR FORMULATING VOLATILE AND NON-VOLATILE COMPOUNDS OF INTEREST IN ANIMAL NUTRITION AND HEALTH, PREPARATION METHOD AND USES THEREOF” (ID4TECH, priority 2019, published 2022).

System: Staphylococcus aureus
Settings: protein A, α-hemolysin, β-lactamase, TSST-1

CCCCCCCCCCCC(=O)OCC(O)CO (stereo not shown) [glycerol monolaurate]
production of exoenzymes and virulence factors: blocks the production
